Pooled drug test results. Numbers come from NIAID ChemDB, via PubChem.

Common to all: growth or infection tests; species: Varicella zoster virus; read-out: EC50

ECn: concentration that inhibits the pathogen or its effect by n%.

Nc1nc2c(ncn2COC(CO)CO)c(=O)[nH]1 ; method: cytopathic effect ; cells: HEL ; strain: Oka CF1603-resistant ; value: 9.1 µM
Cc1cn(C(CF)CCCO)c(=O)[nH]c1=O ; method: cytopathic effect ; cells: HEL ; strain: 07-01/TK- ; value: >50 µg/mL
O=c1[nH]c(=O)n([C@H]2C[C@H](O)[C@@H](CO)O2)cc1I ; method: plaque count ; cells: HEL ; strain: YS/R ; value: 1.9 µg/mL
O=C(O)/C=C/c1cn([C@@H]2O[C@H](CO)[C@@H](O)[C@@H]2O)c(=S)[nH]c1=O ; method: plaque count ; cells: MRC-5 ; strain: Kanno-Kohmura (TK-) ; value: >238.4 µM
Nc1nc2c(ncn2CCCC(O)CF)c(=O)[nH]1 ; method: cytopathic effect ; cells: HEL ; strain: OKA ; value: >50 µg/mL
Nc1nc(=S)n([C@@H]2O[C@H](CO)[C@@H](O)[C@@H]2O)cc1CO ; method: plaque count ; cells: MRC-5 ; strain: CAQU (TK+) ; value: 131.8 µM
Nc1ccn(C[C@@H](CO)OCP(=O)(O)O)c(=O)n1 ; method: cytopathic effect ; cells: HEL ; strain: Oka penciclovir-resistant/B ; value: 0.48 µM
Cc1ccccc1CSCc1cnc2c(Br)cc(Br)c(C)n12 ; method: plaque count ; cells: HEL ; strain: 07/1 (TK-) ; value: >5 µg/mL
Nc1nc2c(ncn2CCC(CO)CO)c(=O)[nH]1 ; method: cytopathic effect ; cells: HEL ; strain: Oka PFA-resistant/B ; value: 5.8 µM
Cc1cccn2c(CSCc3ccccc3)cnc12 ; method: plaque count ; cells: HEL ; strain: YS (TK+) ; value: 0.3 µg/mL
Nc1ncnc2c1ncn2C(CF)CCCO ; method: cytopathic effect ; cells: HEL ; strain: YS ; value: >50 µg/mL
CCCCCc1ccc(-c2cc3cn(C4C[C@H](F)[C@@H](CO)O4)c(=O)nc3o2)cc1 ; strain: YS (TK-) ; value: >2 µM
O=C(O)CP(=O)(O)O ; method: cytopathic effect ; cells: HEL ; strain: Oka BVaraU-resistant ; value: 41.4 µM
Cc1c(Br)cc(Br)c2ncc(CSCc3ccccc3)n12 ; method: plaque count ; cells: HEL ; strain: YS (TK+) ; value: >50 µg/mL
Nc1nc(=S)n([C@@H]2O[C@H](CO)[C@@H](O)[C@@H]2O)cc1/C=C/c1ccccc1 ; method: plaque count ; cells: MRC-5 ; strain: Kanno-Kohmura (TK-) ; value: >258.7 µM
Cc1c(Br)cc(Br)c2ncc(CSCc3ccc(F)cc3)n12 ; method: plaque count ; cells: HEL ; strain: OKA (TK+) ; value: >5 µg/mL
O=C(O)P(=O)(O)O ; method: cytopathic effect ; cells: HEL ; strain: Clinical isolate VZV-31 ; value: 72.9 µM
Cc1cn([C@@H]2O[C@H](CO)[C@@H](O)[C@@H]2O)c(=S)nc1N ; method: plaque count ; cells: MRC-5 ; strain: Kanno-Kohmura (TK-) ; value: >275.1 µM
O=C(NCc1ccc(Cl)cc1)c1c[nH]c2ccc(C#CCO)cc2c1=O ; method: plaque count ; strain: STE ; value: 0.1 µM
Cc1ccc(CSCc2cnc3c(Br)cc(Br)c(C)n23)cc1 ; method: plaque count ; cells: HEL ; strain: YS/R (TK-) ; value: >20 µg/mL
O=c1[nH]c(=O)n([C@@H]2O[C@H](CO)[C@@H](O)[C@@H]2O)cc1/C=C/Br ; method: plaque count ; cells: HEL ; strain: YS ; value: 0.0005 µg/mL
Cc1c(Br)cc(Br)c2ncc(CSC(C)c3cccs3)n12 ; method: plaque count ; cells: HEL ; strain: 07/1 (TK-) ; value: >2 µg/mL
Nc1nc(F)nc2c1ncn2[C@@H]1C=C(CO)[C@@H](O)[C@H]1O ; method: cytopathic effect ; cells: HEL ; strain: 07/1 YS/R (TK-) ; value: 7 µg/mL

Lines come from different laboratories, so protocols vary.